## HIV-1 5' UTR: effect of mutations on RNA dimer formation

RNA: 5' end of the HIV-1 NL4-3 genome, made in vitro. Positions 1-437 read:
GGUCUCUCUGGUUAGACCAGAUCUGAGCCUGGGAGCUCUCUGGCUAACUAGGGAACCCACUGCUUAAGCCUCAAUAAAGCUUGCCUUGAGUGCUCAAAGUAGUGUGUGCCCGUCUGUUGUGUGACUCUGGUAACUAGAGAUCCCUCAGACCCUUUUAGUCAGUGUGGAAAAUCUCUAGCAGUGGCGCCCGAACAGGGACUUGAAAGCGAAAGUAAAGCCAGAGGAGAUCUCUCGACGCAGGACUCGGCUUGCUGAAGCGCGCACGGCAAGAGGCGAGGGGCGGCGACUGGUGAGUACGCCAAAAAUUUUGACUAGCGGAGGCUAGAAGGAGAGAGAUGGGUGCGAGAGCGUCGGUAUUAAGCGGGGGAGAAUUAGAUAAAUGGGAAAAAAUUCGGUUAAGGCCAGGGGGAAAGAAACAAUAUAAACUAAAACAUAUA

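Mutant RNA libraries with 1G, 2G or 3G starts, with or without cap, were folded at 37 °C for 30 min. High salt was 300 mM KCl and 5 mM MgCl2, low salt 40 mM KCl and 0.1 mM MgCl2; monomer and dimer were parted on a native gel. Mutation frequencies in the two bands give Kdimer.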

Scale: median log2 Kdimer over the changes at a position; positive = changes inhibit dimerization, negative = changes enhance it. One numbering serves 1G, 2G and 3G. A position is written with its base where known. Bases beyond 437 are not listed in the source.

{"position": "G310", "3G uncapped high-salt": 0.00, "1G capped low-salt": -0.05, "3G uncapped low-salt": 0.10}
{"position": "U357", "3G uncapped high-salt": 0.03, "1G capped low-salt": 0.12, "3G uncapped low-salt": -0.11}
{"position": "C343", "3G uncapped high-salt": 0.06, "1G capped low-salt": -0.11, "3G uncapped low-salt": 0.62}
{"position": "G275", "3G uncapped high-salt": 2.59, "1G capped low-salt": 1.90, "3G uncapped low-salt": 2.66}
{"position": "G166", "3G uncapped high-salt": 0.18, "1G capped low-salt": 0.03, "3G uncapped low-salt": -0.14}
{"position": "457", "3G uncapped high-salt": 0.13, "1G capped low-salt": 0.02, "3G uncapped low-salt": 0.01}
{"position": "C36", "3G uncapped high-salt": -0.40, "1G capped low-salt": -0.26, "3G uncapped low-salt": -0.70}
{"position": "A378", "3G uncapped high-salt": -0.01, "1G capped low-salt": 0.14, "3G uncapped low-salt": 0.08}
{"position": "G364", "3G uncapped high-salt": -0.06, "1G capped low-salt": -0.28, "3G uncapped low-salt": 0.22}
{"position": "A336", "3G uncapped high-salt": 0.00, "1G capped low-salt": 0.53, "3G uncapped low-salt": 0.79}
{"position": "G315", "3G uncapped high-salt": 0.28, "1G capped low-salt": 0.34, "3G uncapped low-salt": 0.50}
{"position": "498", "3G uncapped high-salt": 0.07, "1G capped low-salt": -0.02, "3G uncapped low-salt": -0.09}
{"position": "A368", "3G uncapped high-salt": 0.28, "1G capped low-salt": 0.13, "3G uncapped low-salt": 0.01}
{"position": "U213", "3G uncapped high-salt": -0.02, "1G capped low-salt": -0.61, "3G uncapped low-salt": -0.62}
{"position": "A209", "3G uncapped high-salt": 0.67, "1G capped low-salt": 0.76, "3G uncapped low-salt": 0.86}
{"position": "G383", "3G uncapped high-salt": 0.23, "1G capped low-salt": 0.14, "3G uncapped low-salt": 0.15}
{"position": "U24", "3G uncapped high-salt": 0.05, "1G capped low-salt": -0.32, "3G uncapped low-salt": -0.05}
{"position": "470", "3G uncapped high-salt": 0.12, "1G capped low-salt": 0.01, "3G uncapped low-salt": 0.13}
{"position": "G190", "3G uncapped high-salt": 0.15, "1G capped low-salt": 0.16, "3G uncapped low-salt": 0.39}
{"position": "C84", "3G uncapped high-salt": -0.06, "1G capped low-salt": -0.15, "3G uncapped low-salt": -0.59}
{"position": "C402", "3G uncapped high-salt": -0.04, "1G capped low-salt": -0.20, "3G uncapped low-salt": 0.02}
{"position": "A198", "3G uncapped high-salt": 0.04, "1G capped low-salt": -0.11, "3G uncapped low-salt": -0.45}
{"position": "G79", "3G uncapped high-salt": 0.24, "1G capped low-salt": 0.21, "3G uncapped low-salt": 0.64}
{"position": "G338", "3G uncapped high-salt": 0.21, "1G capped low-salt": 0.03, "3G uncapped low-salt": 1.00}
{"position": "G106", "3G uncapped high-salt": -0.18, "1G capped low-salt": 0.49, "3G uncapped low-salt": 0.80}
{"position": "A412", "3G uncapped high-salt": 0.04, "1G capped low-salt": 0.06, "3G uncapped low-salt": 0.09}
{"position": "477", "3G uncapped high-salt": -0.04, "1G capped low-salt": -0.02, "3G uncapped low-salt": 0.10}
{"position": "482", "3G uncapped high-salt": -0.08, "1G capped low-salt": -0.07, "3G uncapped low-salt": 0.00}
{"position": "G148", "3G uncapped high-salt": -0.09, "1G capped low-salt": 0.13, "3G uncapped low-salt": 0.21}
{"position": "G62", "3G uncapped high-salt": 0.20, "1G capped low-salt": 0.20, "3G uncapped low-salt": 0.11}
{"position": "G247", "3G uncapped high-salt": -0.63, "1G capped low-salt": -1.15, "3G uncapped low-salt": -1.34}
{"position": "A330", "3G uncapped high-salt": 0.15, "1G capped low-salt": 0.37, "3G uncapped low-salt": 0.40}
{"position": "G119", "3G uncapped high-salt": -0.10, "1G capped low-salt": -0.22, "3G uncapped low-salt": -0.52}
{"position": "U159", "3G uncapped high-salt": -0.15, "1G capped low-salt": -0.08, "3G uncapped low-salt": -0.03}
{"position": "A46", "3G uncapped high-salt": -0.05, "1G capped low-salt": -0.28, "3G uncapped low-salt": -0.41}
{"position": "G206", "3G uncapped high-salt": -0.48, "1G capped low-salt": -0.65, "3G uncapped low-salt": -0.88}
{"position": "G367", "3G uncapped high-salt": 0.24, "1G capped low-salt": 0.19, "3G uncapped low-salt": 0.25}
{"position": "C185", "3G uncapped high-salt": 0.05, "1G capped low-salt": -0.28, "3G uncapped low-salt": -0.42}
{"position": "A263", "3G uncapped high-salt": 0.16, "1G capped low-salt": 1.14, "3G uncapped low-salt": 1.17}
{"position": "A76", "3G uncapped high-salt": 0.31, "1G capped low-salt": 0.04, "3G uncapped low-salt": -0.09}

A selection of 2 entries from above:

position,3G uncapped high-salt,1G capped low-salt,3G uncapped low-salt
G364,-0.06,-0.28,0.22
G310,0.00,-0.05,0.10

Values reported by Ye et al. 2022 (doi:10.1038/s41594-022-00746-2).